# Source: PubChem BioAssay AID624099 (ICCB-Longwood, 2012)
# Assay: 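Human genes that papillomavirus E2 requires to repress the HPV18 LCR promoter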 (primary screen)
# Cells: human C33A cervical carcinoma cells (HPV-negative) stably expressing BPV1 E2 and an HPV18 LCR luciferase reporter
# Knock-down reagent: siRNA pool against human genes, 40 nM
# Timing: 72 h
# Read-out: 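Per-well luciferase luminescence, z-scored on each plate against the plate mean and SD with control wells left out, then averaged across three replicate plates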
# Scale: mean z-score and z-score: higher = stronger reporter signal, weaker E2 silencing
# Active means: 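Mean z ≥ 2 together with z ≥ 2 in two or more of the three replicates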
# The deposit covers about 21,000 reagents; below is a part drawn at random. 497 of all reagents (2.4%) count as active. 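Higher z means weaker E2 silencing; only reporter increases were scored, and knock-downs that hurt cell survival may mask genuine repressor factors.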 Entries without a mark were called inactive. No sequences are given here.
target gene,PubChem SID,mean z-score,"z-score, replicate A","z-score, replicate B","z-score, replicate C"
CACNA1G-AS1 (CACNA1G antisense RNA 1),SID134325636,-0.85,-0.73,-0.89,-0.93
LOC388210 (retired record),SID134328634,-0.73,-0.75,-0.62,-0.83
NCKIPSD (NCK interacting protein with SH3 domain),SID134324964,0.46,-0.51,0.82,1.08
"BSCL2 (BSCL2 lipid droplet biogenesis associated, seipin)",SID134320728,-0.52,-0.3,-0.59,-0.66
CCN6 (cellular communication network factor 6),SID134315871,-0.94,-0.77,-0.93,-1.13
ATG9B (autophagy related 9B),SID134321970,-0.51,-0.4,-0.5,-0.62
SYP (synaptophysin),SID134316917,-0.03,-0.12,-0.03,0.06
GNG4 (G protein subunit gamma 4),SID134321030,-0.33,-0.43,-0.37,-0.19
GEMIN7 (gem nuclear organelle associated protein 7),SID134318576,-0.5,-0.27,-0.66,-0.58
HSPA12B (heat shock protein family A (Hsp70) member 12B),SID134321472,0.47,0.36,0.7,0.34
GLOD4 (glyoxalase domain containing 4),SID134323140,0.35,0.03,0.57,0.45
NKX2-6 (NK2 homeobox 6),SID134326381,-0.29,-0.2,-0.32,-0.35
ASB17 (ankyrin repeat and SOCS box containing 17),SID134319331,-0.02,-0.05,-0.1,0.08
DLK2 (delta like non-canonical Notch ligand 2),SID134318426,-1.15,-1.26,-1.16,-1.02

Already shown: 2 of the entries above.
target gene,PubChem SID,mean z-score,"z-score, replicate A","z-score, replicate B","z-score, replicate C"
GEMIN7 (gem nuclear organelle associated protein 7),SID134318576,-0.5,-0.27,-0.66,-0.58
HSPA12B (heat shock protein family A (Hsp70) member 12B),SID134321472,0.47,0.36,0.7,0.34

The listing continues.
target gene,PubChem SID,mean z-score,"z-score, replicate A","z-score, replicate B","z-score, replicate C"
KLRC4 (killer cell lectin like receptor C4),SID134317811,0.2,0.37,0.23,0
SI (sucrase-isomaltase),SID134314238,-1.54,-1.47,-1.7,-1.44
SRSF11 (serine and arginine rich splicing factor 11),SID134316240,-0.06,-0.06,-0.2,0.09
PORCN (porcupine O-acyltransferase),SID134314342,-0.54,-0.42,-0.41,-0.78
UBAP2 (ubiquitin associated protein 2),SID134317402,0.3,0.42,0.15,0.32
C1orf141 (chromosome 1 open reading frame 141),SID134326993,0.19,0.44,0.06,0.06
CCKBR (cholecystokinin B receptor),SID134310898,0.1,0.11,0,0.2
SIGLECL1 (SIGLEC family like 1),SID134322085,0,0,0.05,-0.06
HPX (hemopexin),SID134316824,-0.69,-0.48,-0.95,-0.65
